Experiments:
[1] = molecular target: neuraminidase of influenza A/WSN/1933 (H1N1) virus (Influenza A virus, UniProt P03470); test: Influenza neuraminidase inhibition, fluorogenic MUNANA assay; format: biochemical; conditions: read-out: IC50, neuraminidase inhibition
A/WSN/1933 (H1N1) virus = test: Cytopathic prevention assay in MDCK cells, H1N1

Protein sequences, listed by entry. Tags and fused reporters are not part of them.
UniProt P03470, whole entry: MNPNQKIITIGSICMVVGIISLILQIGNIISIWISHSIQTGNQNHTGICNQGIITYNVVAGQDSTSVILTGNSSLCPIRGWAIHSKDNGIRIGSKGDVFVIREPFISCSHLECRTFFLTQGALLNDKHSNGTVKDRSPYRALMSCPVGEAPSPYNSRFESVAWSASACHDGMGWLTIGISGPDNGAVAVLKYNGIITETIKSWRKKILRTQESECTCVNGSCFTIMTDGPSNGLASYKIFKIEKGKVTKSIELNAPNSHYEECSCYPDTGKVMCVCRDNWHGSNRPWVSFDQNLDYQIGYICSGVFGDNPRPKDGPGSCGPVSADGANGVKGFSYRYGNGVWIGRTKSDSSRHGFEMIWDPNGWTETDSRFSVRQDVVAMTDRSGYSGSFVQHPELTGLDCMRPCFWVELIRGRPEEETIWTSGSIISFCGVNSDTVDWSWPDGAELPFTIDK

**Q.** For CCC(CC)OC1C=C(P(=O)(O)OCCCOC(=O)C=Cc2ccc(O)c(O)c2)CC(N)C1NC(C)=O (stereo not shown), which IC50 [1] is on record?
**A.** Its IC50 is 700 nM.

**Q.** For CCC(CC)OC1C=C(C(=O)OCCCOC(=O)C=Cc2ccc(O)c(O)c2)CC(N)C1NC(C)=O (stereo not shown), which IC50 [1] is on record?
**A.** The IC50 was 2400 nM.

**Q.** What about the “potency relative to oseltamivir” value (A/WSN/1933 (H1N1) virus; protection of MDCK cells infected by A/WSN/1933, greater potency than oseltamivir) of the same compound?
**A.** Its value is “about 6 fold”.

**Q.** And the EC50 (A/WSN/1933 (H1N1) virus; read-out: EC50 (nM), anti-influenza activity, A/WSN/1933 (H1N1) virus, MDCK cells, table data are ranges or single assay results)?
**A.** The EC50 was 73 nM.
